These results are taken from publication PMC6753678, “Fueling Open Innovation for Malaria Transmission-Blocking Drugs: Hundreds of Molecules Targeting Early Parasite Mosquito Stages” (Frontiers in Microbiology, 2019).

For this series, the system named is P. falciparum late stage (stages IV-V) gametocytes. Put plainly: P. falciparum late stage gametocyte ATP depletion assay (Pf GC-ATP).
The mark [1] stands for this setting: unified cytotox / Pf GC-ATP IC50, <10-fold selectivity red, >10-fold green.
Where [2] appears, read: unified cytotox / Pf GC-ATP IC50, red: <10-fold selectivity, green: >10-fold.

For `Cl.N=c1n(CCN2CCCCC2)c2ccccc2n1CC(O)c1ccc(Cl)c(Cl)c1` (stereo not shown) [TCMDC-124064], the “Assay tox ratio Pf GC-ATP” value under setting [1] came out at 1.59.

With `CCN(CC)CCCOC(=O)c1ccc2c(c1)-c1ccc(C(=O)OCCCN(CC)CC)c3cccc-2c13.Cl` [TCMDC-125491], the “Assay tox ratio Pf GC-ATP” value under setting [2] worked out at 139.53.

Turning to `COc1cccc(C(=O)NC(C=Cc2ccccc2)c2cc(Cl)c3cccnc3c2O)c1` (stereo not shown) [TCMDC-125550], the “Assay tox ratio Pf GC-ATP” value under setting [2] is on record as 42.74.

Turning to `O=C(O)C(=O)O.Oc1c(CN2CCC(Cc3ccccc3)CC2)cc(Cl)c2cccnc12` [TCMDC-124594], under setting [1], the “Assay tox ratio Pf GC-ATP” value came to 16.00.

As to `O=C(NCCCCN1CCC(c2c[nH]c3ccc(-c4ccccc4)cc23)CC1)c1ccc(-c2ccccc2)cc1.O=C(O)C(=O)O` [TCMDC-139064], the “Assay tox ratio Pf GC-ATP” value under setting [2] came out at 5.14.

In the case of `CCN(CC)/C(=N\CCCCCC/N=C(\NC(=N)c1ccc(Cl)cc1)N(CC)CC)NC(=N)c1ccc(Cl)cc1` [TCMDC-131806], under setting [2], the “Assay tox ratio Pf GC-ATP” value was 51.90.

In the case of `COc1cc2c(c(Cl)c1OC)CCN(C(=O)C(F)(F)F)CC2c1ccccc1` (stereo not shown) [TCMDC-132071], the “Assay tox ratio Pf GC-ATP” value under setting [2] worked out at 12.82.

As to `Nc1cc(C=Cc2ccc([N+](=O)[O-])o2)nc2ccccc12` [TCMDC-142295], the “Assay tox ratio Pf GC-ATP” value under setting [2] turned out to be 58.50.

For the compound `Cc1cc(Nc2ccncc2)n2nc(C)c(-c3ccccc3Cl)c2n1` [TCMDC-124918], the “Assay tox ratio Pf GC-ATP” value under setting [2] is given as 12.86.

Regarding `CN1CCN(c2nsc3ccc(-c4ccc(NC(=O)Nc5cc(C(F)(F)F)ccc5F)cc4)cc23)CC1.O=C(O)C(F)(F)F` [TCMDC-133435], the “Assay tox ratio Pf GC-ATP” value under setting [2] was 0.85.

For the compound `Cc1[nH]c2ccccc2c1C(=O)C(C)Sc1n[nH]c(-c2ccccc2Br)n1` (stereo not shown) [TCMDC-125114], the “Assay tox ratio Pf GC-ATP” value (unified cytotox / IC50, <10-fold red, >10-fold green) was 111.43.

As for `CC(C)CNCc1cccc(-c2ccc(CN(CCCN3CCN(C)CC3)C(=O)CCC3CCCC3)cc2)c1.O=C(O)C(F)(F)F` [TCMDC-140558], the “Assay tox ratio Pf GC-ATP” value under setting [2] was 35.71.

`COc1ccc2nc(-c3cccc(C)n3)nc(Nc3ccncc3)c2c1` [TCMDC-134670]: under setting [2], the “Assay tox ratio Pf GC-ATP” value was determined as 9.96.

As to `O=C(O)C(F)(F)F.O=C(c1cccs1)N(Cc1cccc(-c2ccc(CNC3CCCC3)cc2)c1)C1CCN(Cc2ccccc2)CC1` [TCMDC-140567], under setting [2], the “Assay tox ratio Pf GC-ATP” value came to 8.40.

Regarding `Br.CCCCC(NCC)c1ccc(OCCOc2ccc(C(CCCC)NCC)cc2)cc1` (stereo not shown) [TCMDC-137612], the “Assay tox ratio Pf GC-ATP” value under setting [2] is recorded as 14.41.

In the case of `COc1cc(CCNC(=N)/C=C/c2ccc(Cl)cc2)ccc1Cl.Cl` [TCMDC-137457], the “Assay tox ratio Pf GC-ATP” value under setting [2] is given as 50.00.

Take `CCN(CC)CCCNc1ncc2c(-c3ccc(NC(=O)Nc4cc(C(F)(F)F)ccc4F)cc3)nn(C)c2n1.O=C(O)C(F)(F)F` [TCMDC-141583]: under setting [2], the “Assay tox ratio Pf GC-ATP” value was found to be 2.73.

In the case of `O=C(Nc1cccc(-c2cccc(-c3ccc(F)cc3)n2)c1)c1ccc([N+](=O)[O-])o1` [TCMDC-124807], under setting [2], the “Assay tox ratio Pf GC-ATP” value is given as 4.55.

With `Cl.c1ccc2c(NCCCCCCNc3ccnc4ccccc34)ccnc2c1` [TCMDC-137913], the “Assay tox ratio Pf GC-ATP” value under setting [2] came to 17.02.

As for `COc1ccc(COc2cc(NCCCN)nc3ccccc23)cc1` [TCMDC-139286], under setting [2], the “Assay tox ratio Pf GC-ATP” value is given as 24.96.

With `CN(C)CCCNc1nccc(N(C)c2ccc(NC(=O)Nc3cc(C(F)(F)F)ccc3F)cc2)n1.O=C(O)C(F)(F)F` [TCMDC-141633], the “Assay tox ratio Pf GC-ATP” value under setting [2] turned out to be 17.36.

In the case of `Cc1cccc2[nH]cc(C3CCN(CC4CCC(NC(=O)/C=C/c5ccc(Cl)c(Cl)c5)CC4)CC3)c12.Cl` (stereo not shown) [TCMDC-140137], the “Assay tox ratio Pf GC-ATP” value under setting [2] amounted to 2.04.

As for `Nc1ncc(-c2ccc3nccc(-c4ccncc4)c3c2)cc1S(=O)(=O)N1CCOCC1` [TCMDC-134180], under setting [2], the “Assay tox ratio Pf GC-ATP” value was determined as 3.62.

For `O=C(O)C(F)(F)F.c1cc(CNCCN2CCNCC2)cc(-c2cccc(-c3nc4ccccc4[nH]3)c2)c1` [TCMDC-132859], the “Assay tox ratio Pf GC-ATP” value under setting [2] is recorded as 27.18.

With `Cc1cccc2nc(-c3ccc(-c4cccc(CNCCN5CCNCC5)c4)cc3)[nH]c12` [TCMDC-132867], the “Assay tox ratio Pf GC-ATP” value under setting [2] worked out at 15.95.
